A mixed list of measured activities; the numbers were collected in NIAID ChemDB.

Common to all: whole-cell or culture tests; organism: HIV-2; endpoint: EC50

An empty or dashed field is not shown.

compound	strain or isolate	mutations	cells	method	conditions	result
Cc1cn([C@H]2C=C[C@@H](COP(=O)(O)N[C@@H](CC(=O)O)C(=O)O)O2)c(=O)[nH]c1=O	ROD	-	CEM/TK-	MTT	-	184 µM
C#C[C@]1(CO)O[C@@H](n2ccc(N)nc2=O)[C@@H](O)[C@@H]1O	ROD	-	HeLa	β-galactosidase	-	0.012 µM
Nc1ncnc2c1ncn2/C=C\P(=O)(O)O	ROD	-	CEM + CEM-SS	-	-	>200 µM
CC(C)CN(C[C@@H](O)[C@H](Cc1cc(F)cc(F)c1)NC(=O)O[C@H]1CCO[C@H]2OCC[C@H]21)S(=O)(=O)c1ccc2nc(NC(C)C)sc2c1	ROD	-	MT-2	MTT	-	0.00047 µM
Cc1cn([C@H]2C[C@H](N=[N+]=[N-])[C@@H](CO)O2)c(=O)[nH]c1=O	ROD	-	MAGI + MAGI-CCR5	β-galactosidase	3 d	0.026 µM
C#C[C@]1(CO)O[C@@H](n2cnc3c(=O)[nH]cnc32)C[C@@H]1O	ROD	-	HeLa	β-galactosidase	-	0.29 µM
O=c1ccn(/C=C/P(=O)(O)O)c(=O)[nH]1	ROD	-	CEM + CEM-SS	-	-	>200 µM
Cc1cn([C@H]2CC[C@@H](O)[C@H]2CO)c(=O)[nH]c1=O	-	-	CEM + CEM/0	-	-	>250 µM
Nc1ccn(/C=C/P(=O)(O)O)c(=O)n1	ROD	-	CEM + CEM-SS	-	-	>200 µM
CC(C)CN(C[C@@H](O)[C@H](Cc1ccccc1)NC(=O)O[C@H]1CO[C@H]2OCC[C@H]21)S(=O)(=O)c1ccc(N)cc1	ROD	-	MT-2	MTT	-	0.021 µM
Nc1ccn(/C=C\P(=O)(O)O)c(=O)n1	ROD	-	CEM + CEM-SS	-	-	>200 µM
Nc1ncnc2c1ncn2[C@H]1CC[C@@H](CO)O1	ROD	-	C8166	-	-	22 µM
Nc1ccn([C@H]2CC[C@@H](CO)O2)c(=O)n1	LAV-2	-	U-937	virus yield	-	<0.001 µM
Cc1ccnc2c1NC(=O)c1cccnc1N2C1CC1	ROD	-	MAGI + MAGI-CCR5	β-galactosidase	3 d	>1000 µM
CC(C)CN(C[C@@H](O)[C@H](Cc1ccc(F)cc1)NC(=O)O[C@H]1CCO[C@H]2OCC[C@H]21)S(=O)(=O)c1ccc2nc(NC(C)C)sc2c1	ROD	-	MT-2	MTT	-	0.0026 µM
Cc1cn([C@H]2CC[C@H](O)[C@H]2CO)c(=O)[nH]c1=O	-	-	CEM + CEM/0	-	-	26 µM
CCOP(=O)(/C=C/n1ccc(N)nc1=O)OCC	ROD	-	CEM + CEM-SS	-	-	>200 µM
CC[C@@]1(O)C(=O)OCc2c1cc1n(c2=O)Cc2cc3cc(O)ccc3nc2-1	CBL-20	-	C8166	syncytia	-	0.0132 µg/mL
O=c1[nH]c(SCc2cn(Cc3ccc(F)cc3)nn2)nc(Cc2cccc3ccccc23)c1I	ROD	-	-	MTT	-	>81.81 µM
Cc1cccc2c1OP(=O)(OC[C@H]1C[C@H](n3cc(C)c(=O)[nH]c3=O)C[C@@H]1O)OC2	-	-	CEM + CEM/0	-	-	23.3 µM
O=c1[nH]c(=O)n(/C=C/P(=O)(O)O)cc1Br	ROD	-	CEM + CEM-SS	-	-	>200 µM
N#Cc1ccc(Cn2cc(CSc3nc(Cc4c(Cl)cccc4Cl)cc(=O)[nH]3)nn2)cc1	ROD	-	-	MTT	-	>133 µM
C#C[C@]1(CO)O[C@@H](n2cc(C)c(=O)[nH]c2=O)C[C@@H]1O	EHO	-	HeLa	β-galactosidase	-	0.29 µM
C1CNCCNCCCNCCNC1	GH-1	-	MOLT-4	syncytia	-	8.44 µM
C[C@]1(CO)O[C@@H](n2ccc(N)nc2=O)C[C@@H]1O	EHO	-	HeLa	β-galactosidase	-	0.0013 µM
Cc1ccnc2c1NC(=O)c1cccnc1N2C1CC1	ROD	-	CEM + CEM-SS	cytopathic effect / XTT	-	>38 µM
CC(C)CN(C[C@@H](O)[C@H](Cc1ccccc1)NC(=O)O[C@H]1CCOC1)S(=O)(=O)c1ccc(N)cc1	ROD	-	MT-2	MTT	-	0.47 µM
O=c1[nH]c(SCc2cn(Cc3ccccc3)nn2)nc(Cc2c(Cl)cccc2Cl)c1I	ROD	-	-	MTT	-	>120 µM
Cc1cn([C@H]2C[C@H](N=[N+]=[N-])[C@@H](CO)O2)c(=O)[nH]c1=O	MS	-	CEM-T4 + CEM	cytopathic effect / MTT	-	0.0002 µg/mL
Cc1cn([C@H]2C=C[C@@H](COP(=O)(O)O)O2)c(=O)[nH]c1=O	ROD	-	CEM/TK-	MTT	-	170 µM
Cc1cccc2c1OP(=O)(OC[C@H]1[C@H](n3cc(C)c(=O)[nH]c3=O)CC[C@@H]1O)OC2	-	-	CEM + CEM/0	-	-	125 µM
O=c1ccn(/C=C\P(=O)(O)O)c(=O)[nH]1	ROD	-	CEM + CEM-SS	-	-	>200 µM
Cc1cn([C@H]2C=C[C@@H](COP(=O)(O)OP(=O)(O)OP(=O)(O)O)O2)c(=O)[nH]c1=O	-	-	-	-	-	0.97 µM
Cc1cn([C@H]2C=C[C@@H](COP(=O)(O)N(CC(=O)O)CC(=O)O)O2)c(=O)[nH]c1=O	ROD	-	CEM/TK-	MTT	-	155 µM
COc1ccc(S(=O)(=O)N(CC(C)C)C[C@@H](O)[C@H](Cc2cc(F)cc(F)c2)NC(=O)O[C@H]2CCO[C@H]3OCC[C@H]32)cc1	ROD	-	MT-2	MTT	-	0.0008 µM
Cc1cn([C@H]2C[C@H](F)[C@@H](CO)O2)c(=O)[nH]c1=O	2298	-	PBMC	ELISA	-	0.006 µM
COc1ccc(Cn2cc(CSc3nc(Cc4cccc5ccccc45)cc(=O)[nH]3)nn2)cc1	ROD	-	-	MTT	-	>68.53 µM
CCOP(=O)(/C=C/n1cc(CO)c(=O)[nH]c1=O)OCC	ROD	-	CEM + CEM-SS	-	-	>200 µM
COc1ccc2c(c1)COP(=O)(OC[C@@H]1C=C[C@H](n3cnc4c(N)ncnc43)O1)O2	-	-	CEM + CEM/0	-	-	0.65 µM
C#C[C@]1(CO)O[C@@H](n2cnc3c(N)nc(F)nc32)CC1O	ROD9	M184V	MAGIC-5A	β-galactosidase / absorbance	-	0.011 µM
COC(=O)[C@H](C)NP(=O)(OC[C@@H]1CC[C@H](n2cnc3c(N)ncnc32)O1)Oc1ccccc1	ROD	-	C8166	-	-	0.05 µM
CCOP(=O)(/C=C\n1ccc(N)nc1=O)OCC	ROD	-	CEM + CEM-SS	-	-	>200 µM

The last 3 rows once more:

compound	strain or isolate	mutations	cells	method	conditions	result
C#C[C@]1(CO)O[C@@H](n2cnc3c(N)nc(F)nc32)CC1O	ROD9	M184V	MAGIC-5A	β-galactosidase / absorbance	-	0.011 µM
COC(=O)[C@H](C)NP(=O)(OC[C@@H]1CC[C@H](n2cnc3c(N)ncnc32)O1)Oc1ccccc1	ROD	-	C8166	-	-	0.05 µM
CCOP(=O)(/C=C\n1ccc(N)nc1=O)OCC	ROD	-	CEM + CEM-SS	-	-	>200 µM

Conditions beyond the fields shown may differ between rows. ECn: concentration that inhibits the pathogen or its effect by n%.